Measured values from several laboratories, pooled; numbers as filed in NIAID ChemDB.

Common to all: whole-cell or culture tests; organism: Vesicular stomatitis virus; read by: cytopathic effect; read-out: EC50

ECn: concentration that inhibits the pathogen or its effect by n%.

{"smiles": "CCc1nc(-n2c(-c3ccccc3)nc3ccc(Br)cc3c2=O)nc(N)c1-c1ccc(Cl)cc1", "cells": "HeLa", "value": ">16 µg/mL"}
{"smiles": "O=c1c2ncn(COCCO)c2nc2[nH]c(-c3ccccc3)c(-c3ccc(C(c4ccccc4)c4ccccc4)cc3)n12", "value": ">16 µg/mL"}
{"smiles": "CN(C)c1ncnc2c1ncn2COCCO", "cells": "PRK", "value": ">400 µg/mL"}
{"smiles": "OC[C@H]1O[C@@H](c2cc(C#CBr)c(F)cc2F)C[C@@H]1O", "cells": "E6SM", "value": ">400 µg/mL"}
{"smiles": "Cc1cn([C@H]2OC[C@@H](CO)C2F)c(=O)[nH]c1=O", "cells": "E6SM", "value": ">80 µg/mL"}
{"smiles": "CO[C@@H]1[C@H](O)[C@@H](CO)O[C@H]1n1cnc2c(N)ncnc21", "cells": "PRK", "value": ">100 µg/mL"}
{"smiles": "O=c1[nH]c(=O)n([C@H]2C[C@H](O)[C@@H](CO)O2)cc1C1CC1", "cells": "E6SM", "value": ">1500 µM"}
{"smiles": "Nc1nc2c(ncn2[C@H]2OC[C@@H](CO)C2O)c(=O)[nH]1", "cells": "HeLa", "value": ">80 µg/mL"}
{"smiles": "CO[C@H]1[C@H](OC)[C@@H](CO)O[C@H]1n1cnc2c(N)ncnc21", "cells": "PRK", "value": ">100 µg/mL"}
{"smiles": "Nc1ncnc2c1ncn2[C@@H]1C=C(CO)[C@@H](O)[C@H]1O", "cells": "HeLa", "value": "2 µg/mL"}
{"smiles": "Cc1cn(COCCO)c(=O)[nH]c1=O", "cells": "PRK", "value": ">400 µg/mL"}
{"smiles": "[N-]=[N+]=N[C@H]1[C@H](O)[C@H](n2cnc3c(N)ncnc32)O[C@@H]1CO", "cells": "PRK", "value": ">200 µg/mL"}
{"smiles": "Nc1ncnc2c1ncn2C[C@@H](CO)OCP(=O)(O)O", "cells": "ESM", "value": ">400 µg/mL"}
{"smiles": "Cc1cn(C2CC(O[N+](=O)[O-])C(CO)O2)c(=O)[nH]c1=O", "cells": "E6SM", "value": ">400 µg/mL"}
{"smiles": "N#Cc1cncc([C@H]2O[C@H](CO)[C@H](O)[C@@H]2O)c1", "cells": "E6SM", "value": "≥100 µg/mL"}
{"smiles": "O=c1c2ncn(COCCO)c2[nH]c2ncc(CO)n12", "value": ">3.2 µg/mL"}
{"smiles": "NC(=O)c1cncc([C@H]2O[C@H](CO)[C@@H](O)[C@@H]2O)c1", "cells": "E6SM", "value": "≥100 µg/mL"}
{"smiles": "CC(=O)OCCOCn1cnc2c(=O)n3cc(-c4ccc5ccccc5c4)[nH]c3nc21", "value": ">16 µg/mL"}
{"smiles": "Cc1cn([C@@H]2OC[C@H](CO)[C@H]2N=[N+]=[N-])c(=O)[nH]c1=O", "cells": "E6SM", "value": ">80 µg/mL"}
{"smiles": "CC(C)(C)c1cn([C@H]2C[C@H](O)[C@@H](CO)S2)c(=O)[nH]c1=O", "cells": "E6SM", "value": ">1500 µM"}
{"smiles": "Nc1ncnc2c1ncn2[C@@H]1O[C@H](CO)[C@@H](O)[C@H]1N", "cells": "PRK", "value": "≥40 µg/mL"}
{"smiles": "O=c1ccn(C2CC(O[N+](=O)[O-])C(CO)O2)c(=O)[nH]1", "cells": "E6SM", "value": ">400 µg/mL"}
{"smiles": "NC(=S)c1cncc([C@@H]2O[C@H](CO)[C@@H](O)[C@@H]2O)c1", "cells": "E6SM", "value": "≥100 µg/mL"}
{"smiles": "CC(C)(C)c1cn([C@H]2C[C@H](O)[C@@H](CO)O2)c(=O)[nH]c1=O", "cells": "E6SM", "value": ">1500 µM"}
{"smiles": "[N-]=[N+]=N[C@H]1[C@H](O)[C@@H](CO)O[C@H]1n1cnc2c(N)ncnc21", "cells": "PRK", "value": ">200 µg/mL"}
{"smiles": "COc1cc(Cc2cnc(-n3c(C)nc4ccc(Br)cc4c3=O)nc2N)cc(OC)c1OC", "cells": "E6SM", "value": ">80 µg/mL"}
{"smiles": "[N-]=[N+]=NC(CBr)c1cc([C@H]2C[C@H](O)[C@@H](CO)O2)c(F)cc1F", "cells": "E6SM", "value": ">400 µg/mL"}
{"smiles": "Nc1nc2c(ncn2[C@H]2C[C@H](O)[C@@H](CO)O2)c(=O)[nH]1", "cells": "PRK", "value": ">200 µg/mL"}
{"smiles": "COc1cc(Cc2cnc(-n3c(-c4ccccc4)nc4ccc(Br)cc4c3=O)nc2N)cc(OC)c1OC", "cells": "HeLa", "value": ">16 µg/mL"}
{"smiles": "Cc1nc2c(=O)[nH]c(N)nc2n1COCCO", "cells": "PRK", "value": ">400 µg/mL"}
{"smiles": "COc1ccc(-c2cn3c(=O)c4ncn(COC(CO)CO)c4nc3[nH]2)cc1", "value": ">80 µg/mL"}

The last 4 rows once more:

| smiles | cells | value |
|---|---|---|
| Nc1nc2c(ncn2[C@H]2C[C@H](O)[C@@H](CO)O2)c(=O)[nH]1 | PRK | >200 µg/mL |
| COc1cc(Cc2cnc(-n3c(-c4ccccc4)nc4ccc(Br)cc4c3=O)nc2N)cc(OC)c1OC | HeLa | >16 µg/mL |
| Cc1nc2c(=O)[nH]c(N)nc2n1COCCO | PRK | >400 µg/mL |
| COc1ccc(-c2cn3c(=O)c4ncn(COC(CO)CO)c4nc3[nH]2)cc1 | - | >80 µg/mL |

Rows are shuffled and stem from different studies. Blank or dashed fields: not listed here.